Measurements taken from publication doi:10.1101/2021.04.14.439868.
The exact form of at least one protein or probe is not confirmed. At least one verdict was read from the data and is not stated in words by the source.

Chains of the proteins cited; added tags and fusions are not shown. Lines headed by an entry give the natural chain unless they say otherwise; changes in a name come on top.
UniProt P21308: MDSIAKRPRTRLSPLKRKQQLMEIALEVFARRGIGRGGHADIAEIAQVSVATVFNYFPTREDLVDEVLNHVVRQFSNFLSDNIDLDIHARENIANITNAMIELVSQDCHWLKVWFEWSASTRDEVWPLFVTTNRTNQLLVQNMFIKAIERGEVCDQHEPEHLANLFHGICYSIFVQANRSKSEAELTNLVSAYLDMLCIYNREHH

Biological target: LuxR (Vibrio campbellii BB120) (UniProt P21308)
Assay: EMSA
Details: DMSO

TTACTTATTTATAGTGTTACAAATAACATTA (double strand) [luxC promoter site B (JDN54/JDN55)]
binding result: binds
